Compound potency records, mixed from different reports. Data source: NIAID ChemDB in PubChem.

All rows: growth or infection tests; species: HIV-1; cells: MT-4; measure: EC90

An empty or dashed field is not shown. Lines come from different laboratories, so protocols vary. ECn is the concentration giving n% inhibition of infection, replication or growth.

| compound | strain | changes | read by | value |
|---|---|---|---|---|
| FC(F)(F)c1ccnc2c1NC(=NC1CC1)c1cccnc1N2C1CC1 | IIIB |  | cytopathic effect / MTT | >200 µM |
| CCc1cc(NCc2nc3c(Cl)ccc(Cl)c3o2)c(=O)[nH]c1C | HXB2 |  | antigen | 0.085 µM |
| CC(C)(C)OC(=O)N[C@@H](Cc1ccccc1)[C@@H](O)C[C@@H](Cc1ccc(OCC(=O)O)cc1)C(=O)N[C@H]1c2ccccc2C[C@H]1O | IIIB |  | p24 | >10 µM |
| CCc1cc(NCc2nc3c(Cl)ccc(Cl)c3o2)c(=O)[nH]c1C | IIIB |  | cytopathic effect / XTT | 0.38 µM |
| COP(=O)(OC[C@H]1O[C@@H](n2cc(C)c(=O)[nH]c2=O)C[C@@H]1N=[N+]=[N-])C(N)=O | GKV-4046 |  | p24 | >0.0026 µM |
| Cc1cn([C@H]2C[C@H](N=[N+]=[N-])[C@@H](CO)O2)c(=O)[nH]c1=O | GKV-4046 |  | p24 | 0.35 µM |
| CC(C)(C)NC(=O)[C@@H]1CN(Cc2cccnc2)CCN1C[C@@H](O)C[C@@H](Cc1ccccc1)C(=O)N[C@H]1c2ccccc2C[C@H]1O | IIIB |  | cytopathic effect / MTT | 0.041 µg/mL |
| C1CNCCNCCCN(CCCN2CCCNCCNCCCNCC2)CCNC1 | HE |  | cytopathic effect / MTT | 1.19 µM |
| CCN(c1ncccc1NC(C)(C)C)C1CCN(C(=O)c2cc3cc(NS(C)(=O)=O)ccc3[nH]2)CC1 | IIIB |  | p24 | 0.004 µM |
| Cc1cn([C@H]2C[C@H](N=[N+]=[N-])[C@@H](CO)O2)c(=O)[nH]c1=O | XM-T69SSS | RT-T69SSS L210W T215Y | p24 | 77 µM |
| CC(C)(C)NC(=O)[C@@H]1C[C@@H]2CCCC[C@@H]2CN1C[C@@H](O)[C@H](Cc1ccccc1)NC(=O)[C@H](CC(N)=O)NC(=O)c1ccc2ccccc2n1 | NL4-3-P28 (PR M46I I84V) | PR-M46I I84V | p24 | 0.16 µM |
| CC(C)c1c(CO)cn(Cc2ccncc2)c1Sc1cc(Cl)cc(Cl)c1 | IIIB |  | cytopathic effect / MTT | 0.03 µM |
| O=c1[nH]cnc2c1ncn2[C@H]1CC[C@@H](CO)O1 | IIIB |  | cytopathic effect / MTT | 1.7 µg/mL |
| CC(=O)c1ccccc1NC(C(N)=O)c1c(Cl)cccc1Cl | IIIB |  | p24 | 0.15 µM |
| CC(C)c1c(COC(N)=O)cn(Cc2ccncc2)c1Sc1ccccc1 | IIIB |  | cytopathic effect / MTT | 5 µM |
| S=C(NCCc1ccccn1)Nc1ccc(Br)cn1 | IIIB |  | cytopathic effect / XTT | 0.13 µM |
| C=C(C)C12C[C@@H](COC(C)=O)[C@@]3(OO1)[C@@H]1[C@H]2O[C@H](O)CCCCCC[C@@H](C)[C@H]2[C@H](C)[C@H](OCc4ccccc4)[C@@](O)([C@H](O)[C@@]4(CO)O[C@@H]14)[C@@H]23 | NL4-3 |  | p24 / ELISA | 0.0004 µM |
| C1CNCCNCCCN[C@H]([C@@H]2CNCCCNCCNCCCN2)CNC1 | IIIB |  | cytopathic effect / MTT | 1.16 µM |
| C=C(C)C12C[C@@H](COCc3ccccc3)[C@@]3(OO1)[C@@H]1[C@H]2O[C@H](O)CCCCCC[C@@H](C)[C@H]2[C@H](C)[C@H](OCc4ccccc4)[C@@](O)([C@H](O)[C@@]4(CO)O[C@@H]14)[C@@H]23 | NL4-3 |  | p24 / ELISA | 0.00041 µM |
| CC(C)c1nc(CN(C)C(=O)N[C@H](C(=O)N[C@@H](Cc2ccccc2)C[C@H](O)[C@H](Cc2ccccc2)NC(=O)OCc2cncs2)C(C)C)cs1 | IIIB |  | cytopathic effect / MTT | 0.056 µg/mL |
| CCOP(=O)(OC[C@H]1O[C@@H](n2cc(C)c(=O)[nH]c2=O)C[C@@H]1N=[N+]=[N-])C(=O)NCCc1ccccc1 | GKV-4046 |  | p24 | 0.0002 µM |
| CCc1cc(CCc2nc3ccccc3o2)c(=O)[nH]c1C | IIIB |  | cytopathic effect / MTT | 0.051 µM |
| CC(C)c1nc(CN(C)C(=O)N[C@H](C(=O)N[C@@H](Cc2ccccc2)C[C@H](O)[C@H](Cc2ccccc2)NC(=O)OCc2cncs2)C(C)C)cs1 | NL4-3 |  | p24 | 0.1 µM |
| Cc1cn([C@H]2C=C[C@@H](CO)O2)c(=O)[nH]c1=O | IIIB |  | cytopathic effect / p24 / trypan blue | 2.7 µM |
| CC(C)CN(C[C@@H](O)[C@H](Cc1ccccc1)NC(=O)[C@@H](NC(=O)CNCc1cccc(F)c1)C(C)(C)C)S(=O)(=O)c1cccc(N)c1 | HXB2 |  | p24 | 0.0053 µM |
| CCOC(=O)P(=O)(OCCc1ccccc1)OC[C@H]1O[C@@H](n2cc(C)c(=O)[nH]c2=O)C[C@@H]1N=[N+]=[N-] | GKV-4046 |  | p24 | 0.075 µM |
| C=C(C)C12C[C@@H](COCc3ccccc3)[C@@]3(OO1)[C@@H]1[C@H]2OCCCCCCC[C@@H](C)[C@H]2[C@H](C)[C@H](OCc4ccccc4)[C@@](O)([C@H](O)[C@@]4(CO)O[C@@H]14)[C@@H]23 | NL4-3 |  | p24 / ELISA | 0.0016 µM |
| CCC(c1cc(=O)[nH]c(SC2CCCC2)n1)c1c(F)cccc1F | IIIB |  | p24 | 0.042 µM |
| CCCOP(=O)(OC[C@H]1O[C@@H](n2cc(C)c(=O)[nH]c2=O)C[C@@H]1N=[N+]=[N-])C(N)=O | GKV-4046 |  | p24 | 0.0288 µM |
| CCc1cc(NCc2nc3c(Cl)ccc(Cl)c3o2)c(=O)[nH]c1C | DLV-resistant MF (RT-P236L) | RT-P236L | p24 | 0.43 µM |
| CCOP(=O)(OC[C@H]1O[C@@H](n2cc(C)c(=O)[nH]c2=O)C[C@@H]1N=[N+]=[N-])C(=O)NCCc1ccccc1 | GKV-4046 |  | p24 | 0.0022 µM |
| CCC[C@@]1(CCc2ccccc2)CC(O)=C([C@H](CC)c2cccc(NS(=O)(=O)c3ccc(C(F)(F)F)cn3)c2)C(=O)O1 | NL4-3 |  | p24 | 0.07 µM |
| Cc1ccnc2c1NC(=O)c1cccnc1N2C1CC1 | IIIB |  | cytopathic effect / MTT | 0.047 µg/mL |
| O=c1[nH]cnc2c1ncn2[C@H]1CC[C@@H](CO)O1 | XM-M184V | RT-M184V | p24 | 6.4 µM |

Repeating the final 2 entries:

compound	strain	changes	read by	value
Cc1ccnc2c1NC(=O)c1cccnc1N2C1CC1	IIIB		cytopathic effect / MTT	0.047 µg/mL
O=c1[nH]cnc2c1ncn2[C@H]1CC[C@@H](CO)O1	XM-M184V	RT-M184V	p24	6.4 µM